Experimental data: article PMC4929710, “Specificity and mechanism of action of alpha-helical membrane-active peptides interacting with model and biological membranes by single-molecule force spectroscopy” (Scientific Reports, 2016)

Experiments:
Test in all cases: Tryptophan fluorescence with LUVs
Assay type in all cases: binding
PC/Chol (8:1 w/w) LUVs = details: for PC/Chol Wavelength (emission maximum): HEPES pH 7.4, 25 °C, 10 min; for PC/Chol Intensity: tryptophan fluorescence intensity, 25 °C
Excerpt: (§1) In order to investigate the interaction between peptides and difference types of cell membranes, three different LUVs were used to mimic a prokaryotic cell membrane (PC/PG), a normal eukaryotic cell membrane (PC/Chol), and a cancer cell membrane (PC/SM/PE/PS/Chol). Tryptophan residue in the peptide sequence was used as a fluorescent probe to examine the interaction of peptides with model membranes. […] For example, in the PC/PG (7:3 w/w) anionic prokaryotic mimicking model membrane, peptides V13L and A12L/A20L had the strongest hydrophobicity with blue shift values of approximately 37 nm and 38 nm, respectively. Conversely, peptide V13E with a negative charge of glutamic acid residue, and peptide L6A/L17A with the lowest hydrophobicity had blue shift values of approximately 18 nm and 17 nm, respectively. […] In addition, within PC/SM/PE/PS/Chol (4.35:4.35:1:0.3:1 w/w) as a cancer-mimicking model membrane, the same results could be obtained in that peptide hydrophobicity correlates with anticancer activity and the blue shift values of peptides.
(§2) In accordance with previously described methods, LUVs were prepared with PC/PG (7:3 w/w), PC/Chol (8:1 w/w), and PC/SM/PE/PS/Chol (4.35:4.35:1:0.3:1 w/w) to mimic prokaryotic cell, […], membranes, respectively. Lipids using the freeze-thaw method as described previously, followed by extrusion through […] double-stacked nuclepore filters using an Mini-Extruder (Avanti Polar Lipids, Inc.)[11][27].
(§3) Three kinds of LUVs were prepared and cultured in HEPES buffer (pH 7.4, 10 mM HEPES, 150 mM NaCl) and the molar concentration was adjusted to 100 μM. A total of 14 μL of 100 μM MAPs was mixed with 686 μL of 100 μM liposomes at 25 °C for 10 min. A Shimadzu RF-5301PC, (excitation wavelength of […], emission wavelength of 300–450 nm) was used to measure the tryptophan fluorescence. Potassium iodide (KI) as a quencher was added to the previous reaction system for a final concentration of 0.02–0.08 M, respectively. The experimental data were plotted according to the Stern–Volmer equation F0/F = 1 + Ksv[Q], where F0 and F are the fluorescence intensity in the absence or presence of a quencher at concentration [Q], respectively, and Ksv is the Stern–Volmer quenching constant.

PC/PG (7:3 w/w) LUVs = details: HEPES pH 7.4, 25 °C, 10 min
Excerpt: as §1, §2, §3

[1] = tested on: PC/SM/PE/PS/Chol (4.35:4.35:1:0.3:1 w/w) LUVs; details: for PC/SM/PE/PS/Chol Wavelength (emission maximum): PC/SM/PE/PS/Chol (4.35:4.35:1:0.3:1 w/w) LUVs, HEPES pH 7.4, 25 °C, 10 min; for PC/SM/PE/PS/Chol Intensity: tryptophan fluorescence intensity, PC/SM/PE/PS/Chol LUVs, 25 °C
Excerpt: as §1, §2, §3

Ac-KWKSFAKTFKSAKKTVAHTALKAISS-NH2 [L6A/L17A]
PC/Chol Wavelength (emission maximum) (PC/Chol (8:1 w/w) LUVs): 350 nm
PC/Chol Intensity (PC/Chol (8:1 w/w) LUVs): 71.60
PC/PG Wavelength (emission maximum) (PC/PG (7:3 w/w) LUVs): 334 nm
PC/SM/PE/PS/Chol Wavelength (emission maximum) [1]: 329 nm
PC/SM/PE/PS/Chol Intensity [1]: 213.77

Ac-KWKSFLKTFKSAEKTVLHTALKAISS-NH2 [Peptide V13E]
PC/Chol Wavelength (emission maximum) (PC/Chol (8:1 w/w) LUVs): 348 nm
PC/Chol Intensity (PC/Chol (8:1 w/w) LUVs): 136.25
PC/PG Wavelength (emission maximum) (PC/PG (7:3 w/w) LUVs): 331 nm
PC/SM/PE/PS/Chol Wavelength (emission maximum) [1]: 326 nm
PC/SM/PE/PS/Chol Intensity [1]: 260.90

Ac-KWKSFLKTFKSALKTVLHTALKAISS-NH2 [Peptide V13L]
PC/Chol Wavelength (emission maximum) (PC/Chol (8:1 w/w) LUVs): 335 nm
PC/Chol Intensity (PC/Chol (8:1 w/w) LUVs): 281.14
PC/PG Wavelength (emission maximum) (PC/PG (7:3 w/w) LUVs): 309 nm
PC/SM/PE/PS/Chol Wavelength (emission maximum) [1]: 316 nm
PC/SM/PE/PS/Chol Intensity [1]: 380.24

Ac-KWKSFLKTFKSASKTVLHTALKAISS-NH2 [Peptide V13S]
PC/Chol Wavelength (emission maximum) (PC/Chol (8:1 w/w) LUVs): 347 nm
PC/Chol Intensity (PC/Chol (8:1 w/w) LUVs): 85.51
PC/PG Wavelength (emission maximum) (PC/PG (7:3 w/w) LUVs): 323 nm
PC/SM/PE/PS/Chol Wavelength (emission maximum) [1]: 319 nm
PC/SM/PE/PS/Chol Intensity [1]: 342.76

Ac-KWKSFAKTFKSAKKTVLHTALKAISS-NH2 [Peptide L6A]
PC/Chol Wavelength (emission maximum) (PC/Chol (8:1 w/w) LUVs): 348 nm
PC/Chol Intensity (PC/Chol (8:1 w/w) LUVs): 64.43
PC/PG Wavelength (emission maximum) (PC/PG (7:3 w/w) LUVs): 330 nm
PC/SM/PE/PS/Chol Wavelength (emission maximum) [1]: 326 nm
PC/SM/PE/PS/Chol Intensity [1]: 295.77

Ac-KWKSFLKTFKSAAKTVLHTALKAISS-NH2 [Peptide V13A]
PC/Chol Wavelength (emission maximum) (PC/Chol (8:1 w/w) LUVs): 343 nm
PC/Chol Intensity (PC/Chol (8:1 w/w) LUVs): 173.85
PC/PG Wavelength (emission maximum) (PC/PG (7:3 w/w) LUVs): 313 nm
PC/SM/PE/PS/Chol Wavelength (emission maximum) [1]: 316 nm
PC/SM/PE/PS/Chol Intensity [1]: 368.92
